Measured values from several laboratories, pooled; numbers as filed in NIAID ChemDB.

Shared fields: growth or infection tests; agent: Mycobacterium fortuitum; endpoint: MIC90

Blank or dashed fields: not listed here.

| SMILES | strain | result |
|---|---|---|
| NC1CCN(c2nc3c(cc2F)c(=O)c(C(=O)O)cn3-c2ccc(F)cc2F)C1 | 25 isolates | >8 µg/mL |
| CC[C@H]1OC(=O)[C@H](C)C(=O)[C@H](C)[C@@H](O[C@@H]2O[C@H](C)C[C@H](N(C)C)[C@H]2O)[C@](C)(OC)C[C@@H](C)C(=O)[C@H](C)[C@H]2N(CCCCn3cnc(-c4cccnc4)c3)C(=O)O[C@]12C | 48 strains | >64 µg/mL |
| CO[C@H]1/C=C/O[C@@]2(C)Oc3c(C)c(O)c4c(O)c(c5c(c4c3C2=O)NC2(CCN(CC(C)C)CC2)N=5)=NC(=O)/C(C)=C\C=C\[C@H](C)[C@H](O)[C@@H](C)[C@@H](O)[C@@H](C)[C@H](OC(C)=O)[C@@H]1C | 20 strains | 6.25 µg/mL |
| CN1CCN(c2cc3c(cc2F)c(=O)c(C(=O)O)cn3-c2ccc(F)cc2)CC1 | 19 strains | 4 µg/mL |
| C[C@H]1c2cccc(O)c2C(O)=C2C(=O)[C@]3(O)C(O)=C(C(N)=O)C(=O)[C@@H](N(C)C)[C@@H]3[C@@H](O)[C@@H]21 | 18 strains | 32 µg/mL |
| NCC[C@H](O)C(=O)N[C@@H]1C[C@H](N)[C@@H](O[C@H]2O[C@H](CN)[C@@H](O)[C@H](O)[C@H]2O)[C@H](O)[C@H]1O[C@H]1O[C@H](CO)[C@@H](O)[C@H](N)[C@H]1O | 10 strains | 8 µg/mL |
| CO[C@H]1/C=C/O[C@@]2(C)Oc3c(C)c(O)c4c(O)c(c(/C=N/N5CCN(C6CCCC6)CC5)c(O)c4c3C2=O)NC(=O)/C(C)=C\C=C\[C@H](C)[C@H](O)[C@@H](C)[C@@H](O)[C@@H](C)[C@H](OC(C)=O)[C@@H]1C | 48 strains | 0.25 µg/mL |
| CCn1cc(C(=O)O)c(=O)c2cc(F)c(N3CCNCC3)nc21 | 19 strains | 2 µg/mL |
| C[C@@H]1CN(c2c(F)c(N)c3c(=O)c(C(=O)O)cn(C4CC4)c3c2F)C[C@H](C)N1 | - | 1.5 µg/mL |
| CO[C@H]1/C=C/O[C@@]2(C)Oc3c(C)c(O)c4c(=O)c(c5oc6cc(N7CCN(CC(C)C)CC7)cc(=O)c6nc5c4c3=C2O)NC(=O)/C(C)=C\C=C\[C@H](C)[C@H](O)[C@@H](C)[C@@H](O)[C@@H](C)[C@H](OC(C)=O)[C@@H]1C | 20 strains | >100 µg/mL |
| CC(=O)O[C@H]1C[C@@]2(C)[C@@H](C[C@@H](O)[C@H]3[C@@]4(C)CC[C@@H](O)[C@@H](C)[C@@H]4CC[C@@]32C)/C1=C(\CCC=C(C)C)C(=O)O | 19 strains | >128 µg/mL |
| CN[C@@H]1[C@H](O)[C@H](NC)[C@H]2O[C@@]3(O)C(=O)C[C@@H](C)O[C@H]3O[C@@H]2[C@H]1O | 31 isolates | >64 µg/mL |
| CO[C@@]1(NC(=O)Cc2cccs2)C(=O)N2C(C(=O)O)=C(COC(N)=O)CS[C@@H]21 | 13 strains | 25 µg/mL |
| CN[C@@H]1[C@@H](O)[C@@H](O[C@@H]2[C@@H](O)[C@H](O[C@H]3O[C@H](CN)CC[C@H]3N)[C@@H](N)C[C@H]2N)OC[C@]1(C)O | 31 isolates | 16 µg/mL |
| CCn1cc(C(=O)O)c(=O)c2cc(F)c(N3CCNCC3)cc21 | - | 2 µg/mL |
| O=C(O)c1cn(-c2ccc(F)cc2)c2cc(N3CCNCC3)c(F)cc2c1=O | 19 strains | 2 µg/mL |

The last 2 rows once more:

SMILES | strain | result
CCn1cc(C(=O)O)c(=O)c2cc(F)c(N3CCNCC3)cc21 | - | 2 µg/mL
O=C(O)c1cn(-c2ccc(F)cc2)c2cc(N3CCNCC3)c(F)cc2c1=O | 19 strains | 2 µg/mL

Conditions beyond the fields shown may differ between rows. A number after MIC or MFC names an inhibition level or a share of isolates.